Measured values published in PMC8021898 (Frontiers in Pharmacology, 2021).

Test system: Vero E6 cells
Conditions: African green monkey

Compound: NC(N)=Nc1nc(CSCCC(N)=NS(N)(=O)=O)cs1 [Famotidine]
- Cytotoxicity: CC10: > 100 µM
